Data source: PubChem BioAssay AID504761 (Drosophila RNAi Screening Center, 2011)

- Aim: 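Genome-wide fly cell screen for genes dengue virus requires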 (primary screen)
- System: D.Mel-2 cells from Drosophila
- Reagents: long dsRNA against Drosophila genes
- Treatment: infection with dengue virus type 2; dose and infection time not stated
- Read-out: 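Per well on two replicate plates, imaging gave the percent of cells positive for viral envelope protein, ranked by infection, and a nuclear count of cells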
- Scale: infection score: higher = more virus-infected cells; cell count: higher = more cells in the well
- Active means: 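Very low infection ranking in both replicate wells (chance probability at most 0.065), then a retest showing infection dropped 1.5-fold or more at p below 0.05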
- Calls: active = confirmed: knock-down lowers infection; inactive = not picked or not confirmed
The deposit covers about 22,000 reagents; this is a random part of those with a known target gene and a result. Over the whole deposit, 116 (0.52%) got an active call. 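Calls depend on retest data that are not deposited; infection was ranked per plate without normalising between plates; the unit of the infection score is not given.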 Raw values vary from plate to plate and are shown uncorrected. Names joined by + are all predicted targets of the reagent. Not all columns of the deposit are shown. Reagent sequences are not shown. Not stated in the record: the amount of reagent, the time to read-out.

Arl4 (ADP ribosylation factor-like 4) [DRSC17156]: infection score, replicate 1 = 5.06; cell count, replicate 1 = 1423; call = inactive
betaTry (betaTrypsin) [DRSC07582]: infection score, replicate 1 = 1.81; cell count, replicate 1 = 6617; call = inactive
betaTry (betaTrypsin) [DRSC22377]: infection score, replicate 1 = 5.17; cell count, replicate 1 = 6059; call = inactive
betaTry (betaTrypsin) [DRSC29939]: infection score, replicate 1 = 1.62; cell count, replicate 1 = 6372; call = inactive
CG3909 [DRSC14150]: infection score, replicate 1 = 5.21; cell count, replicate 1 = 6239; call = inactive
yellow-c + CIAPIN1 [DRSC01898]: infection score, replicate 1 = 6.22; cell count, replicate 1 = 6235; call = inactive
Flacc (Fl(2)d-associated complex component) [DRSC20040]: infection score, replicate 1 = 3.86; cell count, replicate 1 = 6004; call = inactive
Flacc (Fl(2)d-associated complex component) [DRSC25501]: infection score, replicate 1 = 4.77; cell count, replicate 1 = 6226; call = inactive
Fancl [DRSC14550]: infection score, replicate 1 = 15.8; cell count, replicate 1 = 5947; call = inactive
CG7024 [DRSC18414]: infection score, replicate 1 = 5.67; cell count, replicate 1 = 1694; call = inactive
CG7024 [DRSC27277]: infection score, replicate 1 = 25.7; cell count, replicate 1 = 5699; call = inactive
CG13380 + CG4174 [DRSC09988]: infection score, replicate 1 = 3.36; cell count, replicate 1 = 6340; call = inactive
CG13380 + CG4174 [DRSC10406]: infection score, replicate 1 = 2.56; cell count, replicate 1 = 6367; call = inactive
Tailor [DRSC12526]: infection score, replicate 1 = 2.3; cell count, replicate 1 = 6562; call = inactive
CG5860 [DRSC15896]: cell count, replicate 1 = 346; call = inactive
mad2 [DRSC10274]: infection score, replicate 1 = 1.19; cell count, replicate 1 = 4272; call = inactive
CG4328 [DRSC23146]: infection score, replicate 1 = 0.79; cell count, replicate 1 = 6844; call = inactive
CG4328 [DRSC28606]: infection score, replicate 1 = 18.6; cell count, replicate 1 = 4415; call = inactive
l(3)S110416 (retired record) [DRSC17094]: infection score, replicate 1 = 5.37; cell count, replicate 1 = 6448; call = inactive
Art2 (Arginine methyltransferase 2) [DRSC00627]: infection score, replicate 1 = 6.99; cell count, replicate 1 = 6607; call = inactive
AttC (Attacin-C) [DRSC06886]: infection score, replicate 1 = 10.7; cell count, replicate 1 = 6441; call = inactive
AttC (Attacin-C) [DRSC26453]: infection score, replicate 1 = 5.65; cell count, replicate 1 = 6390; call = inactive

Part of the list above, reformatted:
Art2 (Arginine methyltransferase 2) [DRSC00627]
- infection score, replicate 1: 6.99
- cell count, replicate 1: 6607
- call: inactive

AttC (Attacin-C) [DRSC06886]
- infection score, replicate 1: 10.7
- cell count, replicate 1: 6441
- call: inactive
